# Laboratory results taken from patent US20130084301A1 (published 2013).
# B1: CD81 large extracellular loop fused to glutathione S-transferase (receptor)
# chain: FVNKDQIAKDVKQFYDQALQQAVVDDDANNAKAVVKTFHETLDCCGSSTLTALTTSVLKNNLCPSGSNIISNLFKEDCHQKIDDLFSGK
# Experiments:
# [1] = biological target: HCV 1a E2 with alanine substitution at 420 (hepatitis C virus genotype 1a, H77c, UniProt P27958 384-746)
# [2] = biological target: HCV 1a E2 with alanine substitution at 428 (hepatitis C virus genotype 1a, H77c, UniProt P27958 384-746)
# [3] = biological target: HCV 1a E2 with alanine substitution at 429 (hepatitis C virus genotype 1a, H77c, UniProt P27958 384-746)
# [4] = biological target: HCV 1a E2 with alanine substitution at 437 (hepatitis C virus genotype 1a, H77c, UniProt P27958 384-746)
# [5] = biological target: HCV 1a E2 with alanine substitution at 441 (hepatitis C virus genotype 1a, H77c, UniProt P27958 384-746)
# [6] = biological target: HCV 1a E2 with alanine substitution at 442 (hepatitis C virus genotype 1a, H77c, UniProt P27958 384-746)
# [7] = biological target: HCV 1a E2 with alanine substitution at 443 (hepatitis C virus genotype 1a, H77c, UniProt P27958 384-746)
# [8] = biological target: HCV 1a E2 with alanine substitution at 446 (hepatitis C virus genotype 1a, H77c, UniProt P27958 384-746)
# [9] = biological target: HCV 1a E2 with alanine substitution at 613 (hepatitis C virus genotype 1a, H77c, UniProt P27958 384-746)
# [10] = biological target: HCV 1a E2 with alanine substitution at 616 (hepatitis C virus genotype 1a, H77c, UniProt P27958 384-746)
binder,measurement,setting,value
B1,binding result,[1],no binding
same,binding result,[2],binds
same,binding result,[3],no binding
same,binding result,[4],no binding
same,binding result,[5],no binding
same,binding result,[6],no binding
same,binding result,[7],binds
same,binding result,[8],binds
same,binding result,[9],no binding
same,binding result,[10],no binding
